According to patent US9540343B2 (Gilead Sciences, Inc., priority 2011, dated 2017):

Test system: not listed separately
Test: in vitro
Settings: human, CC50 (nM), uninfected MT-4 cells, same protocol as Test A, CellTiter-Glo

`NC(=O)c1cc(-c2cccnc2[C@H](Cc2cc(F)cc(F)c2)NC(=O)Cn2nc(C(F)(F)F)c3c2C[C@H]2C[C@@H]32)ccc1F` (single isomer, unassigned) [Example 173] and `NC(=O)c1cc(-c2cccnc2[C@H](Cc2cc(F)cc(F)c2)NC(=O)Cn2nc(C(F)(F)F)c3c2C[C@@H]2C[C@H]32)ccc1F` (single isomer, unassigned) [Example 174] are within 1.5-fold of each other in CC50 at 5 days: 25500 nM for the first, 20000 nM for the second.

`NC(=O)c1cc(-c2cccnc2[C@H](Cc2cc(F)cc(F)c2)NC(=O)Cn2nc(C(F)F)c3c2C(F)(F)C2CC32)ccc1F` (single isomer, unassigned) [Example 215] and `NC(=O)c1cc(-c2cccnc2[C@H](Cc2cc(F)cc(F)c2)NC(=O)Cn2nc(C(F)(F)F)c3c2C(F)(F)C2CC32)ccc1F` (single isomer, unassigned) [Example 449] are within 1.5-fold of each other in CC50 at 5 days: 19200 nM for the first, 21100 nM for the second.

Going from `NC(=O)c1cccc(-c2cccnc2[C@H](Cc2cc(F)cc(F)c2)NC(=O)Cc2c[nH]c3ccc(O)cc23)c1` [Example 39, (S)-3-(2-(2-(3,5-difluorophenyl)-1-(2-(5-hydroxy-1H-indol-3-yl)acetamido)ethyl)pyridin-3-yl)benzamide] to `NC(=O)c1cccc(-c2cccnc2[C@H](Cc2cc(F)cc(F)c2)NC(=O)Cc2c[nH]c3ccc(F)cc23)c1` [Example 50D, (S)-3-(2-(2-(3,5-difluorophenyl)-1-(2-(5-fluoro-1H-indol-3-yl)acetamido)ethyl)pyridin-3-yl)benzamide], the CC50 at 5 days falls from > 48000 nM to 16900 nM.

`NC(=O)c1cc(-c2cccnc2[C@H](Cc2cc(F)cc(F)c2)NC(=O)Cn2nc(C(F)F)c3c2C(F)(F)C2CC32)ccc1F` (stereo partly drawn) [Example 60H, 5-(2-((1S)-1-(2-(3-(difluoromethyl)-5,5-difluoro-3b,4,4a,5-tetrahydro-1H-cyclopropa[3,4]cyclopenta[1,2-c]pyrazol-1-yl)acetamido)-2-(3,5-difluorophenyl)ethyl)pyridin-3-yl)-2-fluorobenzamide] and `NC(=O)c1cc(-c2cccnc2[C@H](Cc2cc(F)cc(F)c2)NC(=O)Cn2nc(C(F)(F)F)c3c2C(F)(F)C2CC32)ccc1F` (stereo partly drawn) [Example 181E, 5-(2-((1S)-1-(2-(5,5-difluoro-3-(trifluoromethyl)-3b,4,4a,5-tetrahydro-1H-cyclopropa[3,4]cyclopenta[1,2-c]pyrazol-1-yl)acetamido)-2-(3,5-difluorophenyl)ethyl)pyridin-3-yl)-2-fluorobenzamide] are within 1.5-fold of each other in CC50 at 5 days: 24000 nM for the first, 27300 nM for the second.

`NC(=O)c1cc(-c2cccnc2[C@H](Cc2cc(F)cc(F)c2)NC(=O)Cn2nc(C(F)F)c3c2C2CCC3C2)ccc1F` (stereo partly drawn) [Example 83, (S)-5-(2-(2-(3,5-difluorophenyl)-1-(2-(4,5,6,7-tetrahydro-3-difluoromethyl-4,7-(methano)indazol-1-yl)acetamido)ethyl)pyridin-3-yl)-2-fluorobenzamide] and `NC(=O)c1cc(-c2cccnc2[C@H](Cc2cc(F)cc(F)c2)NC(=O)Cn2nc(C(F)F)c(C3CC3)c2C(F)F)ccc1F` [Example 562, (S)-5-(2-(1-(2-(4-cyclopropyl-3,5-bis(difluoromethyl)-1H-pyrazol-1-yl)acetamido)-2-(3,5-difluorophenyl)ethyl)pyridin-3-yl)-2-fluorobenzamide] are within 1.5-fold of each other in CC50 at 5 days: 25500 nM for the first, 17800 nM for the second.

`NC(=O)c1cc(-c2cccnc2[C@H](Cc2cc(F)cc(F)c2)NC(=O)Cn2nc(C(F)(F)F)c3c2CCCC3(F)F)ccc1F` [Example 102D, (S)-5-(2-(1-(2-(4,4-difluoro-3-(trifluoromethyl)-4,5,6,7-tetrahydro-1H-indazol-1-yl)acetamido)-2-(3,5-difluorophenyl)ethyl)pyridin-3-yl)-2-fluorobenzamide] and `NC(=O)c1cc(-c2cccnc2[C@H](Cc2cc(F)cc(F)c2)NC(=O)Cn2nc(C(F)(F)F)c3c2C(F)(F)CCC3)ccc1F` [Example 311B, (S)-5-(2-(1-(2-(7,7-difluoro-3-(trifluoromethyl)-4,5,6,7-tetrahydro-1H-indazol-1-yl)acetamido)-2-(3,5-difluorophenyl)ethyl)pyridin-3-yl)-2-fluorobenzamide] are within 1.5-fold of each other in CC50 at 5 days: 21500 nM for the first, 14800 nM for the second.

First: NC(=O)c1cc(-c2cccnc2[C@H](Cc2cc(F)cc(F)c2)NC(=O)Cn2nc(C(F)(F)F)c3c2CCOC3)ccc1F [Example 112B, (S)-5-(2-(2-(3,5-difluorophenyl)-1-(2-(3-(trifluoromethyl)-6,7-dihydropyrano[4,3-c]pyrazol-1(4H)-yl)acetamido)ethyl)pyridin-3-yl)-2-fluorobenzamide]
Second: NC(=O)c1cc(-c2cccnc2[C@H](Cc2cc(F)cc(F)c2)NC(=O)Cn2nc(C(F)(F)F)c3c2CCC3)ccc1F [Example 134, (S)-5-(2-(2-(3,5-difluorophenyl)-1-(2-(3-(trifluoromethyl)-5,6-dihydrocyclopenta[c]pyrazol-1(4H)-yl)acetamido)ethyl)pyridin-3-yl)-2-fluorobenzamide]
The CC50 at 5 days of the first is higher: > 53200 nM for the first, 25200 nM for the second.

`NC(=O)c1cc(-c2cccnc2[C@H](Cc2cc(F)cc(F)c2)NC(=O)Cn2nc(C(F)(F)F)c3c2CC2CC32)ccc1F` (stereo partly drawn) [Example 122G, 5-(2-((1S)-2-(3,5-difluorophenyl)-1-(2-(3-(trifluoromethyl)-3b,4,4a,5-tetrahydro-1H-cyclopropa[3,4]cyclopenta[1,2-c]pyrazol-1-yl)acetamido)ethyl)pyridin-3-yl)-2-fluorobenzamide] and `NC(=O)c1cc(-c2cccnc2[C@H](Cc2cc(F)cc(F)c2)NC(=O)Cn2nc(C(F)(F)F)c3c2C2CC2C3)ccc1F` (stereo partly drawn) [Example 169E, 5-(2-((1S)-2-(3,5-difluorophenyl)-1-(2-(3-(trifluoromethyl)-4,4-a,5,5a-tetrahydro-1H-cyclopropa[4,5]cyclopenta[1,2-c]pyrazol-1-yl)acetamido)ethyl)pyridin-3-yl)-2-fluorobenzamide] are within 1.5-fold of each other in CC50 at 5 days: 19900 nM for the first, 19800 nM for the second.

Going from `NC(=O)c1cc(-c2cccnc2[C@H](Cc2cc(F)cc(F)c2)NC(=O)Cn2nc(C(F)(F)F)c3ccccc32)ccc1F` [Example 250, (S)-5-(2-(2-(3,5-difluorophenyl)-1-(2-(3-(trifluoromethyl)-1H-indazol-1-yl)acetamido)ethyl)pyridin-3-yl)-2-fluorobenzamide] to `NC(=O)c1cc(-c2cccnc2[C@H](Cc2cc(F)cc(F)c2)NC(=O)Cn2ccc(C(F)(F)F)n2)ccc1F` [Example 455, (S)-5-(2-(2-(3,5-difluorophenyl)-1-(2-(3-(trifluoromethyl)-1H-pyrazol-1-yl)acetamido)ethyl)pyridin-3-yl)-2-fluorobenzamide], the CC50 at 5 days rises from 18500 nM to > 53200 nM.

`O=C(Cc1c[nH]c2ccc(O)cc12)N[C@H](Cc1cc(F)cc(F)c1)c1ncncc1-c1ccc(Cl)cc1` [Example 284, (R)—N-(1-(5-(4-chlorophenyl)pyrimidin-4-yl)-2-(3,5-difluorophenyl)ethyl)-2-(5-hydroxy-1H-indol-3-yl)acetamide] and `O=C(Cc1c[nH]c2ccc(O)cc12)N[C@@H](Cc1cc(F)cc(F)c1)c1ncncc1-c1ccc(Cl)cc1` [Example 316, (S)—N-(1-(5-(4-chlorophenyl)pyrimidin-4-yl)-2-(3,5-difluorophenyl)ethyl)-2-(5-hydroxy-1H-indol-3-yl)acetamide] are within 1.5-fold of each other in CC50 at 5 days: 16200 nM for the first, 21400 nM for the second.

`NC(=O)c1cc(-c2cccnc2[C@H](Cc2cc(F)cc(F)c2)NC(=O)Cn2nc(C(F)F)c3c2C(F)(F)CCC3(F)F)ccc1F` [Example 344, (S)-5-(2-(1-(2-(3-(difluoromethyl)-4,4,7,7-tetrafluoro-4,5,6,7-tetrahydro-1H-indazol-1-yl)acetamido)-2-(3,5-difluorophenyl)ethyl)pyridin-3-yl)-2-fluorobenzamide] and `NC(=O)c1cc(-c2cccnc2[C@H](Cc2cc(F)cc(F)c2)NC(=O)Cn2nc(C(F)(F)F)c3c2C2CC2C3(F)F)ccc1F` (stereo partly drawn) [Example 462J, 5-(2-((1S)-1-(2-(4,4-difluoro-3-(trifluoromethyl)-4,4-a,5,5a-tetrahydro-1H-cyclopropa[4,5]cyclopenta[1,2-c]pyrazol-1-yl)acetamido)-2-(3,5-difluorophenyl)ethyl)pyridin-3-yl)-2-fluorobenzamide] are within 1.5-fold of each other in CC50 at 5 days: 17200 nM for the first, 18000 nM for the second.

Going from `NC(=O)c1cc(-c2cccnc2[C@H](Cc2cc(F)cc(F)c2)NC(=O)Cn2nc(C(F)(F)F)c3c2CNCC3)ccc1F` [Example 352, (S)-5-(2-(2-(3,5-difluorophenyl)-1-(2-(3-(trifluoromethyl)-4,5,6,7-tetrahydro-1H-pyrazolo[3,4-c]pyridin-1-yl)acetamido)ethyl)pyridin-3-yl)-2-fluorobenzamide] to `NC(=O)c1cc(-c2cccnc2[C@H](Cc2cc(F)cc(F)c2)NC(=O)Cn2nc(C(F)(F)F)c3c2CCCC3)ccc1F` [Example 589, (S)-5-(2-(2-(3,5-difluorophenyl)-1-(2-(3-(trifluoromethyl)-4,5,6,7-tetrahydro-1H-indazol-1-yl)acetamido)ethyl)pyridin-3-yl)-2-fluorobenzamide], the CC50 at 5 days falls from 32900 nM to 17900 nM (1.8-fold).

First: NC(=O)c1cccc(-c2cccnc2[C@H](Cc2cc(F)cc(F)c2)NC(=O)Cn2ccc3ccccc32)c1 [Example 426, (S)-3-(2-(1-(2-(1H-indol-1-yl)acetamido)-2-(3,5-difluorophenyl)ethyl)pyridin-3-yl)benzamide]
Second: NC(=O)c1cc(-c2cccnc2[C@H](Cc2cc(F)cc(F)c2)NC(=O)Cn2nc(C(F)(F)F)c3c2CCCCC3)ccc1F [Example 458, (S)-5-(2-(2-(3,5-difluorophenyl)-1-(2-(3-(trifluoromethyl)-5,6,7,8-tetrahydrocyclohepta[c]pyrazol-1(4H)-yl)acetamido)ethyl)pyridin-3-yl)-2-fluorobenzamide]
The CC50 at 5 days of the first is higher: > 53000 nM for the first, 15700 nM for the second.

`O=C(Cc1c[nH]c2ccc(O)cc12)NC(Cc1cc(F)cc(F)c1)c1nccnc1-c1ccc(Cl)cc1` (centres unmarked) [Example 443I, N-(1-(3-(4-chlorophenyl)pyrazin-2-yl)-2-(3,5-difluorophenyl)ethyl)-2-(5-hydroxy-1H-indol-3-yl)acetamide] gave a CC50 at 5 days of 16400 nM.

Test system: MT-4 cells
Test: not given
Settings: uninfected MT-4 cells, same protocol as Test A, 5 days, CellTiter-Glo

`NC(=O)c1cc(-c2cccnc2[C@H](Cc2cc(F)cc(F)c2)NC(=O)Cn2nc(C(F)F)c3c2C(F)(F)C2CC32)ccc1F` (single isomer, unassigned) [Example 216] and `NC(=O)c1cc(-c2cccnc2[C@H](Cc2cc(F)cc(F)c2)NC(=O)Cn2nc(C(F)(F)F)c3c2C(F)(F)C2CC32)ccc1F` (single isomer, unassigned) [Example 450] are within 1.5-fold of each other in CC50: 18.7 µM for the first, 19.3 µM for the second.
